From PubChem BioAssay AID1850 (Southern Research Specialized Biocontainment Screening …, 2009) come the findings set out here.

The list shows a part of the results, in another mix than the full data. Entries with a potency or affinity are not part of this list. Activity calls are given as the source filed them. The rule behind the calls is not given here.

The test in a line: Inhibition of PhoP regulon, Salmonella typhi GFP reporter cells, confirmation, 4 h (AID 1850).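 Note: 0% = induced wells with vehicle and 100% = uninduced wells.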 The note with it: Salmonella Typhi PhoP-promoter GFP reporter, fluorescence, at 50 µM, stronger effect = higher value.
Usually inhibition stands for the relative decrease from the control value, in per cent. Take `COc1cc(OC)c(C(=O)NCC2(N(C)C)CCCCC2)cc1OC`: the inhibition is inactive: -0.74%. `O=C(NCC1(N2CCCCC2)CCCCC1)c1cccc(C(F)(F)F)c1`: the inhibition was inactive: 10.7%. The value for `O=C(NCC1(N2CCOCC2)CCCCC1)c1cc(=O)[nH]c2ccccc12` was inactive: -8.92%; that for `COc1cc(C(=O)NCC2(N3CCCCC3)CCCCC2)ccc1OC(F)F` was inactive: 9.88%; that for `COc1ccc(NC2CCN(C(=O)OC(C)(C)C)CC2)cc1` was inactive: -8.69%.

Consider `CN1CCN(CCOC(=O)C(O)(c2ccccc2)c2ccccc2)CC1`, for which the inhibition was inactive: 0.58%. In the case of `O=C(NCC1(N2CCCCC2)CCCCC1)c1ccc(OC(F)F)cc1`, the inhibition is inactive: -0.26%.

Regarding `N#CC1(Nc2ccccc2)CCN(CCc2ccccc2)CC1`, the inhibition is inactive: -0.91%. With `CCN1CCC(Nc2ccc(Cl)cc2)CC1`, the inhibition is inactive: 3.89%.

For the compound `O=C(NCC1(N2CCCCC2)CCCCC1)c1cccc([N+](=O)[O-])c1`, the inhibition was inactive: -0.79%. As for `Cc1ccc(OCC(C)C)c(CN(CCCl)CCCl)c1`, the inhibition is inactive: 11.5%. On to `CCOC(=O)N1CCC(Nc2cccc(C)c2)CC1`, for which the inhibition was inactive: 5.24%. Take `COc1cc(C(=O)NCC2(N(C)C)CCCCC2)ccc1OC(F)F`: the inhibition is inactive: 6.17%. As for `CCOc1ccc(C)cc1CN(CCCl)CCCl`, the figure is inactive: 4.34%; as for `CCOC(=O)N1CCC(Nc2ccc(F)cc2)CC1`, inactive: -1.47%. Consider `COc1ccc(NC2CCN(CCc3ccccc3)CC2)c(OC)c1`, for which the inhibition was inactive: 2.38%.

With `O=C(NCC1(N2CCCCC2)CCCCC1)c1ccc(F)cc1`, the inhibition is inactive: 9.47%.

Consider `Cc1cc(C)cc(N(C(=O)c2ccccc2)C2CCN(C(=O)OC(C)(C)C)CC2)c1`, for which the inhibition was inactive: 0.11%. `O=C(NCC1(N2CCCCC2)CCCCC1)c1ccc(Cl)nc1`: the inhibition was inactive: 6.16%.

Take `O=C(NCC1(N2CCOCC2)CCCCC1)c1cc2ccccc2o1`: the inhibition was inactive: -5.75%. As for `N#CC1(Nc2ccccc2)CCN(Cc2ccccc2)CC1`, the figure is inactive: -20.4%. `O=C(OC1CN2CCC1CC2)C1c2ccccc2Oc2ccccc21` (centres undefined): the inhibition is inactive: -2.01%. With `CCOC(=O)N1CCC(Nc2ccc(OC)cc2)CC1`, the inhibition is inactive: -9.62%.

For the compound `COc1ccc(C(=O)NCC2(N3CCCCC3)CCCCC2)c(OC)c1OC`, the inhibition is inactive: 3.33%.

`CC(C)(C)OC(=O)N1CCC(N(C(=O)c2ccccc2)c2ccc(F)cc2)CC1`: the inhibition was inactive: -0.29%. For `COc1ccc(C(=O)NCC2(N3CCCCC3)CCCCC2)cc1`, the inhibition was inactive: 11.2%. For the compound `O=C(NCC1(N2CCCCC2)CCCCC1)c1cccs1`, the inhibition is inactive: 2.05%.

With `O=C(NCC1(N2CCCCC2)CCCCC1)c1ccc(=O)[nH]c1`, the inhibition is inactive: -8.45%. Regarding `CSc1ccccc1C(=O)NCC1(N2CCCCC2)CCCCC1`, the inhibition was inactive: -2.26%.
